Values from PubChem BioAssay AID504761 (Drosophila RNAi Screening Center, 2011).
The screen tested about 22,000 reagents; shown is an unselected part of those with a known target gene and a result. In the full data, 116 (0.52%) got an active call. 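Calls depend on retest data that are not deposited; infection was ranked per plate without normalising between plates; the unit of the infection score is not given.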 Raw values are not corrected between plates. A number with no mark means an inactive call. A plus sign joins genes that one reagent is predicted to hit. Not all columns of the deposit are shown. Not stated in the record: the amount of reagent, the time to read-out.

- Aim: 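Fly genes whose silencing reduces dengue virus type 2 infection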 (primary screen)
- Cells: D.Mel-2 cells from Drosophila
- Reagents: long dsRNA against Drosophila genes
- Treatment: infection with dengue virus type 2; dose and infection time not stated
- Read-out: 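Per well on two replicate plates, imaging gave the percent of cells positive for viral envelope protein, ranked by infection, and a nuclear count of cells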
- Scale: infection score: higher = more virus-infected cells; cell count: higher = more cells in the well
- Call rule: 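Very low infection ranking in both replicate wells (chance probability at most 0.065), then a retest showing infection dropped 1.5-fold or more at p below 0.05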
- Calls: active = confirmed: knock-down lowers infection; inactive = not picked or not confirmed

Against RpS13 [DRSC03419], the values are infection score, replicate 1 = 5.81; cell count, replicate 1 = 2804.
Against RpS13 [DRSC28558] the deposit lists infection score, replicate 1 = 9.44; cell count, replicate 1 = 837.
CG7137 [DRSC07017] showed infection score, replicate 1 = 9.18; cell count, replicate 1 = 4704.
After knock-down of CG42375 + CG9288 [DRSC16468], the record shows infection score, replicate 1 = 12.2; cell count, replicate 1 = 6496.
Against Zip89B [DRSC16128], the values are infection score, replicate 1 = 6.84; cell count, replicate 1 = 6254.
Depletion of Zip89B [DRSC29691] gave: infection score, replicate 1 = 4.86; cell count, replicate 1 = 6191.
Depletion of TwdlH [DRSC14735] came out at: cell count, replicate 1 = 386.
For Cpr78Cb [DRSC11847], the values are infection score, replicate 1 = 14.3; cell count, replicate 1 = 5717.
For Cpr78Cb [DRSC26957] the deposit lists infection score, replicate 1 = 7.8; cell count, replicate 1 = 6193.
Silencing of CG15368 [DRSC23291] resulted in: infection score, replicate 1 = 5.2; cell count, replicate 1 = 6014.
CG15368 [DRSC25848] scored infection score, replicate 1 = 4.49; cell count, replicate 1 = 6687.
Knock-down of Lpt [DRSC04291] gave: infection score, replicate 1 = 21.5; cell count, replicate 1 = 4849.
For Lpt [DRSC04515] the deposit lists infection score, replicate 1 = 46.8; cell count, replicate 1 = 4686.
Against CG7333 [DRSC16229] the deposit lists infection score, replicate 1 = 2.74; cell count, replicate 1 = 6632.
For alpha-Man-IIa [DRSC15393], the entry reads infection score, replicate 1 = 1.08; cell count, replicate 1 = 6372.
Knock-down of CG3071 [DRSC18526] came out at: infection score, replicate 1 = 7.9; cell count, replicate 1 = 6186.
Against CG3071 [DRSC26289], the values are infection score, replicate 1 = 20.4; cell count, replicate 1 = 4394.
For Cyp6a23 [DRSC07383] the deposit lists infection score, replicate 1 = 10.7; cell count, replicate 1 = 3774.
Against Cyp6a23 [DRSC29473] the deposit lists infection score, replicate 1 = 2.76; cell count, replicate 1 = 1377.
Against Cyp6a21 [DRSC07381], the values are infection score, replicate 1 = 20.1; cell count, replicate 1 = 5149.
CG14694 [DRSC14917] showed infection score, replicate 1 = 2.38; cell count, replicate 1 = 6059.
